# Values of other authors as cited in publication PMC9435674, “Delineating the activity of the potent nicotinic acetylcholine receptor agonists (+)-anatoxin-a and (−)-hosieine-A” (2022).
# System: mice
# Settings: intraperitoneal injection, ref Devlin et al., 1977, Christensen & Khan, 2020
smiles,measurement,value
"CC(=O)C1=CCCC2CCC1N2 (single isomer, unassigned)",LD50,0.2 to 0.25 mg/kg
